Anti-infective test results gathered from many reports (values: NIAID ChemDB through PubChem).

Shared fields: tests in culture; organism: Rhinovirus; measure: EC50

ECn is the concentration giving n% inhibition of infection, replication or growth. Conditions beyond the fields shown may differ between rows.

compound | strain | cells | read by | value
COc1ccc(Cn2cnc3c(N(C)C)nc(C(F)(F)F)nc32)cc1C | Serotype 13 | M-HELA | plaque count | >8 µM
CCOC(=O)c1ccc(OCCCOc2ccc(-c3snc(SC)c3C#N)cc2)cc1 | Serotype 14 (group A) | HELA-OHIO | cytopathic effect | 0.5 µM
COc1ccc(-c2snc(SC)c2C#N)cc1 | Serotype 72 (group A) | HELA-OHIO | cytopathic effect | >12 µM
Cc1c(-c2ccccc2)n(-c2cccc(F)c2)c2ccc(C(C)C)cc2c1=O | 33/1200 | HELA-OHIO | cytopathic effect | 0.17 µg/mL
CN(C)c1nc(C(F)(F)F)nc2c1ncn2Cc1ccc(S(C)(=O)=O)cc1 | Serotype 5 | M-HELA | plaque count | >8 µM
CSc1nsc(-c2ccc(OCCOc3ccccc3)cc2)c1C#N | Serotype 42 (group A) | HELA-OHIO | cytopathic effect | >20 µM
CSc1nsc(-c2ccc(OCc3ccccc3)cc2)c1C#N | Serotype 9 (group B) | HELA-OHIO | cytopathic effect | 3 µM
Cc1nc(-c2cc(C)c(OCCCc3cc(C(F)(F)F)no3)c(C)c2)no1 | Serotype 1A | HeLa | cytopathic effect | 0.06 µg/mL
Cc1cc(CCCCCOc2c(Cl)cc(C3=NCCO3)cc2Cl)on1 | TYPE 39 | HeLa | plaque count | 0.1 µg/mL
Fc1cccc(Cn2cnc3c(Nc4cccc(F)c4)nc(C(F)(F)F)nc32)c1 | Serotype 4 | M-HELA | plaque count | 2.6 µM
CSc1nsc(-c2ccc(OCc3ccccc3)cc2)c1C#N | Serotype 86 (group A) | HELA-OHIO | cytopathic effect | 2 µM
CCOC(=O)/C=C/[C@H](C[C@@H]1CCNC1=O)NC(=O)[C@@H](CC(=O)[C@@H](NC(=O)c1cc(C)on1)C(C)C)Cc1ccc(F)cc1 | Isolate 29 | OHIO HELA-I | cytopathic effect / visual reading | 0.01 µg/mL
CSc1nsc(-c2ccc(OCCc3ccccc3)cc2)c1C#N | Serotype 9 (group B) | HELA-OHIO | cytopathic effect | 5 µM
CN(C)c1nc(C(F)(F)F)nc2c1ncn2Cc1ccc(Cl)c(NC=O)c1 | Serotype 5 | M-HELA | plaque count | >8 µM
CCn1c2c(c(=O)c3cc(C(C)C)ccc31)Cc1ccccc1-2 | Clinical isolate | HELA-OHIO | cytopathic effect | 1.9 µg/mL
CN(C)c1nc(C(F)(F)F)nc2c1ncn2Cc1ccc(Cl)cc1Cl | Serotype 1B | M-HELA | plaque count | 0.13 µM
CSc1nsc(-c2ccc(O)cc2)c1C#N | Serotype 85 (group B) | HELA-OHIO | cytopathic effect | >10 µM
CSc1nsc(-c2ccc(OCCCCOc3ccc([N+](=O)[O-])cc3)cc2)c1C#N | Serotype 41 (group B) | HELA-OHIO | cytopathic effect | >0.5 µM
CN(C)c1nc(C(F)(F)F)nc2c1ncn2Cc1ccccc1Cl | TYPE 1B | M-HELA | plaque count | 0.2 µM
Cc1c(-c2ccccc2)n(-c2ccc(F)cc2)c2ccc(C(C)C)cc2c1=O | 61/6669-CV39 | HELA-OHIO | cytopathic effect | 0.3 µg/mL
CN(C)c1nc(C(F)(F)F)nc2c1ncn2Cc1ccccc1 | TYPE 1B | M-HELA | plaque count | 0.04 µM
CCc1nc(-c2cc(C)c(OCCCc3cc(COC)no3)c(C)c2)no1 | Serotype 67 | HeLa | cytopathic effect | 0.126 µg/mL
CSc1nsc(-c2ccc(OCCCOc3ccc(C#N)cc3)cc2)c1C#N | Serotype 45 (group A) | HELA-OHIO | cytopathic effect | >2 µM
Cc1cc(Cl)ccc1Cn1cnc2c(N(C)C)nc(C(F)(F)F)nc21 | Serotype 13 | M-HELA | plaque count | >8 µM
CCOc1cc(CCCOc2c(C)cc(-c3noc(C)n3)cc2C)on1 | Serotype 86 | HeLa | cytopathic effect | 0.045 µg/mL
CCOC(=O)c1ccc(OCCC2CCN(c3ccc(C)nn3)CC2)cc1 | K2207 (ICAM-1 receptor group 72) | KB | neutral red | 0.136 µM
CN(C)c1ccc(Cn2cnc3c(Nc4cccc(F)c4)nc(C(F)(F)F)nc32)cc1 | Serotype 1B | M-HELA | plaque count | 76 µM
CCOC(=O)c1ccc(OCCOc2ccc(-c3snc(SC)c3C#N)cc2)cc1 | Serotype 72 (group A) | HELA-OHIO | cytopathic effect | >2 µM

Repeating the first 3 entries:

compound,strain,cells,read by,value
COc1ccc(Cn2cnc3c(N(C)C)nc(C(F)(F)F)nc32)cc1C,Serotype 13,M-HELA,plaque count,>8 µM
CCOC(=O)c1ccc(OCCCOc2ccc(-c3snc(SC)c3C#N)cc2)cc1,Serotype 14 (group A),HELA-OHIO,cytopathic effect,0.5 µM
COc1ccc(-c2snc(SC)c2C#N)cc1,Serotype 72 (group A),HELA-OHIO,cytopathic effect,>12 µM